Results published in publication PMC12261321, “Inhibitors of the Bacterioferritin Ferredoxin Complex Dysregulate Iron Homeostasis and Kill and Biofilm-Embedded Cells” (ACS Infectious Diseases, 2025).
≈ marks a conversion by molar mass, not a printed value.

Chains of the proteins cited; added tags and fusions are not shown.
UniProt Q9HY79, whole entry: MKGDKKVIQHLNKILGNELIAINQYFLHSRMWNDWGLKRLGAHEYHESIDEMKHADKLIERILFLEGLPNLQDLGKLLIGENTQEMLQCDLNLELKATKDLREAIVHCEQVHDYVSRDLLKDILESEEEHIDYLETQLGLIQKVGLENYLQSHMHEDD

Tests used:
recombinant Pa BfrB = recombinant Pa BfrB (Pseudomonas aeruginosa, UniProt Q9HY79); test: Dissociation constant (Kd), fluorescence quenching titration of apo Pa BfrB; type: binding, P. aeruginosa
P. aeruginosa PAO1 [1] = test: Half maximal inhibitory concentration (IC50), planktonic growth (CFU/mL); type: cell-based; conditions: for IC50: read-out: IC50, P. aeruginosa PAO1, planktonic cells, M63 media, 18 h
A. baumannii 5075 [2] = test: Compound intracellular accumulation in A. baumannii 5075; type: cell-based
[3] = test system: P. aeruginosa PAO1 biofilm; test: Pellicle biofilm assay, % survival of biofilm cells; type: cell-based; conditions: 24 h
A. baumannii ATCC 17978 = test: MIC, broth microdilution in M63 media; type: cell-based; conditions: 20 h
A. baumannii 5075 [4] = test: MIC, broth microdilution in M63 media; type: cell-based; conditions: 20 h
A. baumannii ATCC 19606 = test: MIC, broth microdilution in M63 media; type: cell-based; conditions: 20 h
P. aeruginosa PAO1 [5] = test: Compound intracellular accumulation in P. aeruginosa PAO1; type: cell-based
A. baumannii 5075 [6] = test: Siderophores secreted by A. baumannii (CAS assay); type: cell-based; conditions: 5075, 20 h, M63 without citrate; compounds 40 μM, SB-17–140 80 μM
[7] = cells treated with 30 µM compound
[8] = biofilm challenged with 50 µM compound
[9] = biofilm challenged with 30 µM compound
[10] = ‡ treatment with 15 µM compound

Structure (SMILES) | Kd (recombinant Pa BfrB) [µM] | IC50 (P. aeruginosa PAO1 [1]) [µM] | Intracell. Accum, A. baumannii 5075 (A. baumannii 5075 [2]; [7]) [nmol/1012 CFU] | % Survival Biofilm, P. aeruginosa PAO1 [3, 8] | MIC, A. baumannii 17978 (A. baumannii ATCC 17978) [µM] | MIC, A. baumannii 5075 (A. baumannii 5075 [4]) [µM] | MIC, A. baumannii 19606 (A. baumannii ATCC 19606) [µM] | Intracell. Accum, P. aeruginosa PAO1 (P. aeruginosa PAO1 [5]; [7]) [nmol/1012 CFU] | IC50, P. aeruginosa PAO1 (P. aeruginosa PAO1 [1]; planktonic cells, M63 media, 18 h) | % Survival Biofilm, P. aeruginosa PAO1 [3, 9] [%] | siderophore secretion, ΔA 630 nm normalized to OD600 (A. baumannii 5075 [6]) | Intracell. Accum, A. baumannii 5075 (A. baumannii 5075 [2]; [10]) [nmol/1012 CFU] | Intracell. Accum, P. aeruginosa PAO1 (P. aeruginosa PAO1 [5]; [10]) [nmol/1012 CFU]
O=C1NC(=O)c2c(NCc3ccc(F)cc3O)cccc21 | 24 | 101 | 248 ± 86 | 61 ± 16% | 150 (≈ 42.9 µg/mL) | 150 (≈ 42.9 µg/mL) | 75 (≈ 21.5 µg/mL) | 25 ± 3 |  |  |  |  | 
O=C1NC(=O)c2c(NCc3cccc(O)c3O)cccc21 | 69 |  | 31 ± 11 | Not active | 200 (≈ 56.9 µg/mL) | 200 (≈ 56.9 µg/mL) | 200 (≈ 56.9 µg/mL) |  | Not active |  |  |  | 
O=C1NC(=O)c2c(NCc3c(O)ccc(Br)c3F)cccc21 | 6 | 13 |  |  | 30 (≈ 11 µg/mL) | 30 (≈ 11 µg/mL) | 30 (≈ 11 µg/mL) |  |  | 54.5 ± 0.7 |  |  | 
O=C1NC(=O)c2c(NCc3ccc(Cl)cc3O)cccc21 | 24 | 33 |  | 12 ± 6% | 50 (≈ 15.1 µg/mL) | 50 (≈ 15.1 µg/mL) | 50 (≈ 15.1 µg/mL) | 78 ± 3 |  |  | secrete significantly higher levels of siderophore |  | 
O=C1NC(=O)c2c(NCc3cc(Cl)cc(Cl)c3O)cccc21 | 8 | 26 |  |  | 40 (≈ 13.5 µg/mL) | 40 (≈ 13.5 µg/mL) | 40 (≈ 13.5 µg/mL) |  |  | 41 ± 4 |  | 358 ± 92 | 110 ± 20
Cc1ccc(O)c(CNc2cccc3c2C(=O)NC3=O)c1 |  | 107 | 148 ± 44 | 63 ± 3% | 100 (≈ 28.2 µg/mL) | 100 (≈ 28.2 µg/mL) | 80 (≈ 22.6 µg/mL) | 87 ± 15 |  |  |  |  | 
O=C1NC(=O)c2c(NCc3cc(F)cc(F)c3O)cccc21 | 14 | 71 | 117 ± 21 | 84 ± 11% | 100 (≈ 30.4 µg/mL) | 50 (≈ 15.2 µg/mL) | 50 (≈ 15.2 µg/mL) | 23 ± 8 |  |  |  |  | 
